Measured values from several laboratories, pooled; numbers as filed in NIAID ChemDB.

Common to all: whole-cell or culture tests; agent: Mycobacterium tuberculosis

MIC bound: limit read from a one-dose screen.

smiles | conditions | endpoint | cells | method | tested at | strain | result
S=C1C(=Nc2ccccc2)N(c2ccccc2)/C(=N/c2ccccn2)N1c1ccccc1 |  | MIC bound |  | BACTEC |  | H37Rv | >12.5 µg/mL
CCCn1c(-c2nnc(C(C)C)o2)cc2ccccc21 |  | MIC |  | resazurin |  | 18b | 2 µg/mL
O=C(CN1CCN(c2cc3c(cc2F)c(=O)c(C(=O)O)cn3C2CC2)CC1)c1cccs1 |  | MIC |  |  |  | H37Rv | 1.56 µg/mL
O=C1CSC(c2ccccc2Br)N1c1nncs1 |  | inhibition |  | BACTEC | 12.5 µg/mL | H37Rv | 8%
CCOc1ccc(S(=O)(=O)[C@H]2CS(=O)(=O)C[C@@H]2NCC(C)C)cc1 |  | MIC |  | resazurin |  | Clinical isolate | 2 µg/mL
C[C@](Cl)([C@@H](Br)/C=C/[C@](C)(Cl)CBr)[C@@H](Br)CCl |  | MIC |  |  |  | H37Rv | >128 µg/mL
Cc1c(-c2ccccc2)c(=O)oc2ccc(-c3cc(-c4ccccc4)c4c(n3)-c3ccccc3CC4)cc12 |  | inhibition |  | agar / visual reading | 250 µg/mL | H37Rv | 27%
Clc1ccc(C2Cc3nc4ccccc4c(-c4ccccc4)c3S2)cc1 |  | MIC |  | agar |  | H37Rv | 16.72 µM
N/C(=N/N=C/c1ccccc1Br)c1ccccn1 |  | MIC |  |  |  | 1814 (THC-resistant) | 16 µg/mL
CCOc1c2c(nn(C)c1=O)Oc1ccccc1N2CCCN1CCOCC1 |  | inhibition |  | BACTEC | 12.5 µg/mL | H37Rv | -18%
CCn1cc(C(=O)O)c(=O)c2cc(F)c(N3CCN(C/C(=N/OC)c4ccco4)CC3)cc21 |  | MIC |  |  |  | H37Rv | >6.25 µg/mL
Cc1c(-c2ccccc2)c(=O)oc2ccc(-c3cc(-c4ccc(F)cc4)c4c(n3)-c3ccccc3CC4)cc12 |  | inhibition |  | agar / visual reading | 250 µg/mL | H37Rv | 39%
CCCCCCCCCCCC(=O)CC1c2c(ccc(OC)c2OC)-c2ccc3cc4c(cc3c2N1C)OCO4 |  | MIC |  | broth dilution / turbidity |  | H37Rv (ATCC 27294) | >50 µg/mL
C/C(=N\NC(=O)c1cc(C)nc2ccc(Br)cc12)c1ccccc1O |  | inhibition |  | BACTEC | 12.5 µg/mL | H37Rv | 30%
CC(=O)NCCc1c2c(c3nccc4c3c1Nc1ccccc1-4)NC(=O)CS2 |  | MIC |  |  |  | H37Rv | >32 µM
COC(=O)C1(C)CCCC2(C)c3ccc(C(C)C)cc3C(OO)CC12 |  | MIC bound |  | BACTEC |  | H37Rv | >12.5 µg/mL
O=C1c2c([nH]ccc2=O)-c2nccc3c2c1nc1ccccc13 |  | MIC |  |  |  | H37Rv | >42 µM
O=C1OCC(Cc2ccc3c(c2)OCO3)/C1=C\c1ccc2c(c1)OCO2 |  | MIC |  | broth dilution / turbidity |  | H37Ra ATCC 25177 | >50 µg/mL
CC1(C)OCC(C2OC(C)(C)OC2/C=C2/CC(=O)NC2=O)O1 |  | inhibition |  | BACTEC | 12.5 µg/mL | H37Rv | 5%
COc1ccnc(NC(=O)NS(=O)(=O)c2cc(C(=O)NC(C)C)ccc2Br)n1 |  | MIC |  |  |  | H37Rv | >80 µg/mL
CCOP(=O)(OCC)/C(C#N)=C/c1ccc(-c2ccc(F)cc2F)o1 |  | inhibition |  | resazurin | 6.25 µg/mL | H37Rv | 6%
CCn1cc(C(=O)O)c(=O)c2cc(F)c(N3CCN(C/C(=N/O)c4ccco4)CC3)cc21 |  | inhibition |  |  | 6.25 µg/mL | H37Rv | 29%
Cc1ccc(S(=O)(=O)N/N=C2\C(=O)N(c3ccc(Cl)cc3C)C(=O)C(=O)C2c2nc3ccccc3s2)cc1 |  | inhibition |  | resazurin | 6.25 µg/mL | H37Rv | 6%
[C-]#[N+][C@@H]1[C@H](C(C)C)CC[C@@H](C)C12C=C(C)CC2 |  | MIC |  |  |  | H37Rv | 2 µg/mL
NC(N)=Nc1nc2ccccc2[nH]1 |  | inhibition |  | resazurin | 6.25 µg/mL | H37Rv | 1%
COc1ccc(-c2cc(-c3ccc4oc(=O)c(-c5ccccc5)c(C)c4c3)nc3c2CCc2ccccc2-3)cc1OC |  | MIC |  | agar / visual reading |  | H37Rv | 100 µg/mL
Clc1ccccc1C1Cc2nc3ccccc3c(-c3ccccc3)c2S1 |  | MIC |  | agar |  | H37Rv | 8.39 µM
CC(=O)Nc1ccc(/C=N/NC(N)=S)cc1F |  | MIC |  |  |  | Isoniazid-resistant | ≤0.1 µg/mL
NC1=CC(=O)c2nc3ccccc3c3ccnc1c23 |  | MIC |  |  |  | H37Rv | 3.2 µM
CCOC(=O)c1ccc([N+](=O)[O-])cc1S(=O)(=O)NC(=O)Nc1nccc(C)n1 |  | MIC |  |  |  | H37Rv | >80 µg/mL
COc1ccc(-c2cc(-c3ccc4oc(=O)c(-c5ccccc5)c(C)c4c3)nc3c2Cc2ccccc2-3)cc1 |  | inhibition |  | agar / visual reading | 250 µg/mL | H37Rv | 35%
CN(C)CCCNc1ccc(O)c2sc3ccccc3c(=O)c12 |  | inhibition |  | BACTEC | 12.5 µg/mL | H37Rv | 8%
N/C(=N/N=C/c1ccc(Br)cc1)c1ccccn1 |  | MIC |  |  |  | H37Rv | 16 µg/mL
S=C(N/N=C/c1ccccn1)SCc1ccccc1 |  | MIC |  | BACTEC |  | H37Rv | 128 µg/mL
COC1=CC(=O)c2nc3ccccc3c3ccnc1c23 |  | MIC |  |  |  | H37Rv | 1.5 µM
[C-]#[N+][C@@]1(C)CC[C@H]2[C@H]3[C@H]4C(=CC(C)(C)C[C@@H]4C[C@@H]2C)CC[C@@H]31 |  | MIC |  |  |  | H37Rv | 8 µg/mL
CC(=O)NC1=NN(C(C)=O)C2(S1)C(=O)N(C)c1ccc(F)cc12 |  | MIC |  | resazurin |  | 18b | 4 µg/mL
Fc1ccc(C2Cc3nc4ccc(Cl)cc4c(-c4ccccc4)c3S2)cc1 |  | MIC |  | agar |  | MDR | 3.98 µM
COC(=O)c1cc2c(s1)-c1nccc3c1c(nc1ccccc13)C2=O |  | MIC |  |  |  | H37Rv | 0.58 µM
Cc1ccc(-c2cc(-c3ccc4oc(=O)c(-c5ccccc5)c(C)c4c3)nc3c2CCc2ccccc2-3)cc1 |  | inhibition |  | agar / visual reading | 250 µg/mL | H37Rv | 53%
CCc1cc(C(N)=S)ccn1 |  | MIC |  |  |  | pMV261 | 1 µg/mL
COc1cc(/C=C/CO)cc2cc(-c3ccc4c(c3)OCO4)oc12 |  | MIC |  | broth dilution / turbidity |  | H37Rv (ATCC 27294) | >50 µg/mL
COc1ccc(/C(O)=C/c2nc3cc(Cl)ccc3oc2=O)cc1 |  | MIC |  | resazurin |  | Clinical isolate | 4 µg/mL
COc1ccc2c(c1OC)CN(C)c1c-2ccc2cc3c(cc12)OCO3 |  | MIC |  | broth dilution / turbidity |  | H37Rv (ATCC 27294) | >50 µg/mL
O=C1C=CC(=NN=C2c3ccccc3-c3ccccc32)C=C1 |  | inhibition |  | BACTEC | 12.5 µg/mL | H37Rv | 86%
CC(=O)O[C@@H]1C[C@@]2(C)[C@@H](CC[C@@H]3[C@@H]2[C@@H](O)C[C@]2(C)C4[C@H](C[C@@H]32)O[C@]2(C[C@H](C)C(C)(C)O2)[C@]4(C)O)C[C@@H]1O |  | MIC |  |  |  | H37Rv | <128 µg/mL
Cc1ccnc(NC(=O)NS(=O)(=O)c2cc(NC(=O)CCl)ccc2C(=O)OC(C)C)n1 |  | MIC |  |  |  | H37Rv | >80 µg/mL
CC(=O)NCCC1=C2Nc3ccccc3C3C=CN=C(C4=C1SCO4)C23 |  | MIC |  |  |  | H37Rv | >17 µM
CC[C@H]1OC(=O)[C@H](C)[C@@H](O[C@H]2C[C@@](C)(OC)[C@@H](O)[C@H](C)O2)[C@H](C)[C@@H](O[C@@H]2O[C@H](C)C[C@H](N(C)C)[C@H]2O)[C@](C)(O)C[C@@H](C)/C(=N\OCOCCOC)[C@H](C)[C@@H](O)[C@]1(C)O |  | MIC90 |  |  |  | 188 strains | 4 µg/mL
CNc1ccc2oc(C[C@@H]3OC4(CC[C@@H]3C)O[C@H](C(C)C(=O)c3ccc[nH]3)[C@H](C)C[C@H]4C)nc2c1C(=O)O |  | MIC |  | resazurin |  | H37Rv | 1.25 µg/mL
OO |  | EC50 |  |  |  | H37Rv | >0.0005 µM
O=c1c2ccccc2nc2n1CCc1c-2[nH]c2ccccc12 |  | MIC |  | broth dilution / turbidity |  | H37Ra ATCC 25177 | >50 µg/mL
COc1cc2c(cc1OC)C1CC(OC(=O)c3ccccc3)(c3nccc4cc(OC)c(OC)cc34)CCN1CC2 |  | MIC |  | BACTEC |  | H37Rv | ≥12.5 µg/mL
Cc1nccn1Cc1nc(-c2ccc(C(F)(F)F)cc2)no1 |  | MIC |  | resazurin |  | Clinical isolate | 16 µg/mL
N#C/C(=C\NC(=S)c1ccncc1)C(N)=O |  | MIC bound |  | resazurin |  | H37Rv | >6.25 µg/mL
COC(=O)c1ccc(NC(=O)C(Cl)Cl)cc1S(=O)(=O)NC(=O)Nc1nccc(OC)n1 |  | MIC |  |  |  | H37Rv | 40 µg/mL
N[C@H]1CCN(c2nc3c(cc2F)c(=O)c(C(=O)O)cn3C2CC2)C1 | inside macrophages | inhibition | Macrophages |  | 1 µg/mL | H37Rv | 70%
CCOC(=O)/C(C#N)=N/Nc1ccc(C(=O)OC)c(S(=O)(=O)NC(=O)Nc2nccc(OC)n2)c1 |  | MIC |  |  |  | H37Rv | >80 µg/mL
CN1C=N[C@H](C(=O)O)C[C@]1(C)COC(=O)c1ccc[nH]1 |  | MIC |  |  |  | H37Rv | >128 µg/mL
Cn1c(=O)c2[nH]c(CCCCc3nc4ccccc4[nH]3)nc2n(C)c1=O |  | inhibition |  | resazurin | 6.25 µg/mL |  | -13%
N/C(=N/N=C/c1ccc(Cl)cc1)c1ccccn1 |  | MIC |  |  |  | 1062 (THC-resistant) | 64 µg/mL
COc1ccc(C2OC(=O)c3ncccc32)cc1 |  | inhibition |  | BACTEC | 12.5 µg/mL | H37Rv | -1%
COc1ccc(-c2cc(-c3ccc4oc(=O)c(-c5ccccc5)c(C)c4c3)nc3c2Cc2ccccc2-3)cc1OC |  | inhibition |  | agar / visual reading | 250 µg/mL | H37Rv | 65%
O=C(N/N=C/c1ccc(N2CCOCC2)o1)c1ccncc1 |  | MIC |  | resazurin |  | Clinical isolate | 16 µg/mL
NNC(=O)c1ccncc1 |  | MIC |  | broth dilution / turbidity |  | H37Rv (ATCC 27294) | 0.03 µg/mL
Clc1ccc(C2Cc3nc4ccccc4c(-c4ccccc4)c3S2)c(Cl)c1 |  | MIC |  | agar |  | MDR | 15.3 µM
CO[C@@H]1C[C@@H](C[C@H]2CC[C@H](C)[C@H]([C@@H](C)C(=O)O)O2)O[C@]2(O[C@](C)([C@H]3CC[C@@](C)([C@@H]4O[C@@H]([C@H]5O[C@@](O)(CO)[C@H](C)C[C@@H]5C)C[C@@H]4C)O3)C[C@H]2C)[C@@H]1C |  | MIC |  |  |  | PZA-R | 3.1 µg/mL
Cc1ccc(S(=O)(=O)NCCNC2=CC(=O)c3nc4ccccc4c4ccnc2c34)cc1 |  | MIC |  |  |  | H37Rv | 3.5 µM
Cc1ccnc(NC(=O)NS(=O)(=O)c2cc(C(=O)OC(C)C)ccc2Br)n1 |  | MIC |  |  |  | H37Rv | 10 µg/mL
C[CH2][Sn]([Cl])([Cl])[CH2]C.c1cnc2c(c1)ccc1cccnc12 |  | MIC | VERO | BACTEC |  | H37Rv | 6.25 µg/mL
Cc1ccc(/C=N/N=C(/N)c2ccccn2)c(C)c1 |  | MIC |  |  |  | H37Rv | 16 µg/mL
CC1(C)COC(c2cccc(C3=NC(C)(C)CO3)n2)=N1 |  | inhibition |  | BACTEC | 12.5 µg/mL | H37Rv | 36%
Cc1ccc(/C=N/N=C(/N)c2ccccn2)cc1 |  | MIC |  |  |  | H37Rv | 16 µg/mL
COc1ccc2nc(C(F)(F)C(F)(F)F)c(C#N)c(N)c2c1 |  | MIC |  | resazurin |  | 18b | 2 µg/mL
NC(N)=NNCC(=O)Nc1ccc(S(=O)(=O)c2ccc(NC(=O)CNN=C(N)N)cc2)cc1 |  | MIC |  | BACTEC |  | H37Rv | ≥12.5 µg/mL
C=C(C)[C@@H]1CC[C@]2(C)CC[C@]3(C)[C@H](CC[C@@H]4[C@@]5(C)CC[C@H](OC(C)=O)C(C)(C)[C@@H]5CC[C@]43C)[C@@H]12 |  | MIC |  |  |  | H37Rv | >128 µg/mL
O=C1C=C(NCCNC(=S)Nc2ccccc2)c2nccc3c2c1nc1ccccc13 |  | MIC |  |  |  | H37Rv | 3.7 µM
CCn1cc(C(=O)O)c(=O)c2cc(F)c(N3CCN(C/C(=N/OCc4ccccc4)c4ccco4)CC3)cc21 |  | MIC |  |  |  | H37Rv | >6.25 µg/mL
CCOC(=O)c1ccc(NC(=O)C(Cl)Cl)cc1S(=O)(=O)NC(=O)Nc1nccc(C)n1 |  | MIC |  |  |  | H37Rv | 80 µg/mL
CCn1cc(C(=O)O)c(=O)c2cc(F)c(N3CCN(C/C(=N/O)c4cccs4)CC3)cc21 |  | MIC |  |  |  | H37Rv | >6.25 µg/mL
CC[C@@H](C(=O)[C@@H](C)[C@@H](O)[C@H](C)[C@@H]1O[C@@H]([C@@H](CC)C(=O)O)CC[C@@H]1C)[C@H]1O[C@@]2(C=C[C@@H](O)[C@@]3(CC[C@@](C)([C@H]4CC[C@](O)(CC)[C@H](C)O4)O3)O2)[C@H](C)C[C@@H]1C |  | MIC |  | resazurin |  | H37Rv | 10 µg/mL

Inhibition is in % at the dose shown (toxicity tests: loss of growth or viability). ECn: concentration that inhibits the pathogen or its effect by n%. An empty or dashed field is not shown. Conditions beyond the fields shown may differ between rows. A number after MIC or MFC names an inhibition level or a share of isolates.